Data published in ChEMBL document CHEMBL1158985, “Two new trichothecenes from Fusarium sporotrichioides” (1991).

Assay: Cytotoxicity against syrian golden hamster BHK21 cells after 24 hrs
Conditions: bhk-21, 24 h

Row | Structure (SMILES) | LC100 [ng/mL]
1 | CCCCC(=O)O[C@H]1C[C@@]2(COC(C)=O)[C@@H](C=C1C)O[C@@H]1[C@H](O)[C@@H](OC(C)=O)[C@@]2(C)[C@@]12CO2 | 14
2 | CCCCCC(=O)O[C@H]1C[C@@]2(COC(C)=O)[C@@H](C=C1C)O[C@@H]1[C@H](O)[C@@H](OC(C)=O)[C@@]2(C)[C@@]12CO2 | 14
3 | CC(=O)O[C@H]1C[C@@]2(CO)[C@@H](C=C1C)O[C@@H]1[C@H](O)[C@@H](OC(C)=O)[C@@]2(C)[C@@]12CO2 | 1000
4 | CC(=O)OC[C@]12C[C@H](O)C(C)=C[C@H]1O[C@@H]1[C@H](O)[C@@H](OC(C)=O)[C@@]2(C)[C@]12CO2 | 31
5 | CCC(=O)O[C@H]1C[C@@]2(COC(C)=O)[C@@H](C=C1C)O[C@@H]1[C@H](O)[C@@H](OC(C)=O)[C@@]2(C)[C@@]12CO2 | 5
6 | CC(=O)OC[C@]12C[C@H](OC(C)=O)C(C)=C[C@H]1O[C@@H]1[C@H](O)[C@@H](OC(C)=O)[C@@]2(C)[C@@]12CO2 | 14
7 | CC(=O)OC[C@]12C[C@H](OC(=O)CC(C)C)C(C)=C[C@H]1O[C@@H]1[C@H](O)[C@@H](OC(C)=O)[C@@]2(C)[C@]12CO2 | 5
